Anti-infective test results gathered from many reports (values: NIAID ChemDB through PubChem).

All rows: host cell toxicity; cell line: H9; read-out: CC50

Blank or dashed fields: not listed here. CCn is the concentration with n% toxicity to the cells. Neighbouring rows are from separate reports.

smiles | method | value
CC(=O)OC1C=C2CC[C@H]3[C@@H]4CC[C@H]([C@H](C)C(=O)O)[C@@]4(C)CC[C@@H]3[C@@]2(C)CC1 | trypan blue | >10 µg/mL
CC(C)(C)OC(=O)N[C@@H](Cc1ccccc1)[C@@H](O)C[C@@H](Cc1ccc(OCP(=O)(OCc2ccccc2)OCc2ccccc2)cc1)C(=O)N[C@H]1c2ccccc2C[C@H]1O | - | >200 µM
CCC1(C)Oc2ccc3c(C)cc(=O)oc3c2[C@@H](OC(=O)C23CCC(C)(C(=O)O2)C3(C)C)[C@H]1OC(=O)C12CCC(C)(C(=O)O1)C2(C)C | - | >38.4 µM
CC1(C)Oc2ccc3ccc(=O)oc3c2[C@@H](OC(=O)C23CCC(C)(C(=O)O2)C3(C)C)[C@H]1OC(=O)C12CCC(C)(C(=O)O1)C2(C)C | - | 35 µM
Cc1cn([C@H]2C[C@H](N=[N+]=[N-])[C@@H](CO)O2)c(=O)[nH]c1=O | - | 1875 µM
Cc1cc(=O)oc2c3c(ccc12)OC[C@H](OC(=O)C12CCC(C)(C(=O)O1)C2(C)C)[C@@H]3OC(=O)C12CCC(C)(C(=O)O1)C2(C)C | - | >41.1 µM
CCOC(=O)COc1ccc(C[C@H](C[C@H](O)[C@H](Cc2ccccc2)NC(=O)OC(C)(C)C)C(=O)N[C@H]2c3ccccc3C[C@H]2O)cc1 | - | 140 µM
COc1ccc2c(OC)c3ccoc3nc2c1OC | cell count | 22.5 µg/mL
CN[C@@H]1[C@@H](O)[C@@H](O[C@@H]2[C@@H](O)[C@H](O[C@H]3O[C@H]([C@@H](C)O)[C@@H](O)[C@H](O)[C@H]3N)[C@@H](N)C[C@H]2N)OC[C@]1(C)O | MTT | ~200 µM
CC(C)[C@H](NC(=O)OCc1ccccc1)C(=O)N[C@@H](Cc1ccccc1)[C@H](O)[C@H](O)[C@H](Cc1ccccc1)NC(=O)OC(C)(C)C | trypan blue | 30 µM
Cc1cn([C@H]2C[C@H](N=[N+]=[N-])[C@@H](CO)O2)c(=O)[nH]c1=O | - | 10 µM
[N-]=[N+]=NCc1cccc(C(=O)CC(=O)C(=O)O)c1 | XTT | 400 µM
CC(C)[C@H](NC(=O)OCc1ccccc1)C(=O)N[C@@H](Cc1ccccc1)[C@H](O)[C@H](Cc1ccccc1)NC(=O)[C@@H](NC(=O)c1cccnc1)C(C)C | trypan blue | >100 µM
C[C@]12CC[C@H]3[C@@H](CC=C4NC(=O)CC[C@@]43C)[C@@H]1CC[C@@H]2C(=O)O | - | 14.1 µM
CC(C)OP(=O)(COc1ccc(C[C@H](C[C@H](O)[C@H](Cc2ccccc2)NC(=O)OC(C)(C)C)C(=O)N[C@H]2c3ccccc3C[C@H]2O)cc1)OC(C)C | - | 130 µM
CC1(C)CC[C@]2(C(=O)O)CC[C@]3(CO)C(=CCC4[C@@]5(C)CC[C@H](O)C(C)(C)C5CC[C@]43C)C2C1 | - | 25 µg/mL
CCC1NCCc2cc(O)c(O)cc21 | - | 20.9 µg/mL
COc1c(O)ccc2c1cnc1c3cc4c(cc3ccc21)OCO4 | cell count | 22.6 µg/mL
COc1cc(CO)c(Cc2nccc3cc(OC)c(OC)cc23)cc1OC | - | 18.8 µg/mL
Cc1cn([C@H]2C[C@H](N=[N+]=[N-])[C@@H](CO)O2)c(=O)[nH]c1=O | trypan blue | >10 µg/mL
COc1ccc(C(C)c2nccc3cc(OC)c(OC)cc23)cc1OC | - | 11.6 µg/mL
CC(C)[C@H](NC(=O)OCCN1CCOCC1)C(=O)N[C@@H](Cc1ccccc1)[C@H](O)[C@H](O)[C@H](Cc1ccccc1)NC(=O)[C@@H](NC(=O)OCCN1CCOCC1)C(C)C | trypan blue | >100 µM
COc1cc(OC)c2ccc(=O)oc2c1OC | cell count | >100 µg/mL
COc1ccc(Cc2nccc3cc(OC)c(OC)cc23)cc1OC | - | >40 µg/mL
CCOc1ccc(Cc2c3cc(OCC)c(OCC)cc3cc[n+]2C)cc1OCC | - | 17.1 µg/mL
COc1c2ccoc2nc2c(OC)c(O)ccc12 | cell count | 23.2 µg/mL
C[C@@H]1CC[C@]2(C(=O)O)CC[C@]3(C)C(=CCC4[C@@]5(C)C(O)C(=O)[C@H](O)C(C)(C)C5CC[C@]43C)C2[C@]1(C)O | - | 4 µg/mL
CC1(C)Oc2ccc3ccc(=S)oc3c2[C@@H](OC(=O)C23CCC(C)(C(=O)O2)C3(C)C)[C@H]1OC(=O)C12CCC(C)(C(=O)O1)C2(C)C | - | >156 µM
CC1(C)CC[C@]2(C(=O)O)CC[C@]3(C)C(=CCC4[C@@]5(C)CC[C@H](OC(=O)C(C)(C)CC(=O)O)C(C)(C)C5CC[C@]43C)C2C1 | - | 9.7 µg/mL
COc1cc2c(cc1OC)N1CCc3cc4c(cc3[C@@H]1CC2)OCO4 | cell count | 2.25 µg/mL
C[C@@H]1CC[C@]2(C(=O)O)CC[C@]3(C)C(=CCC4[C@]5(C)C(CC[C@]43C)C(C)(C)[C@@H](O)[C@H](O)[C@H]5O)C2[C@]1(C)O | - | >100 µg/mL
Cc1cn([C@H]2C[C@H](N=[N+]=[N-])[C@@H](CO)O2)c(=O)[nH]c1=O | - | 1875 µM
COc1c2ccoc2nc2c(OC)cccc12 | cell count | 23.1 µg/mL
CC(C)(CC(=O)O)CC(=O)O[C@H]1CC[C@@]2(C)C(CC[C@]3(C)C2CC=C2C4CC(C)(C)CC[C@]4(C(=O)O)CC[C@]23C)C1(C)C | - | 14.2 µg/mL
Cc1cn([C@H]2C[C@H](N=[N+]=[N-])[C@@H](CO)O2)c(=O)[nH]c1=O | - | >20 µM
O=Cc1ccc(O)cc1 | cell count | 22.3 µg/mL
CC1(C)CC[C@]2(C(=O)O)CC[C@]3(C)C(=CCC4[C@@]5(C)CC[C@H](OC(=O)CCCC(=O)O)C(C)(C)C5CC[C@]43C)C2C1 | - | 14.6 µg/mL
COc1ccc([C@H](O)CNC(=O)c2ccccc2)cc1 | cell count | 21.5 µg/mL
O=C1NC(=O)C(c2ccccc2)(c2ccccc2)N1 | - | >40 µg/mL
CCC(C)(CC(=O)O)CC(=O)O[C@H]1CC[C@@]2(C)C(CC[C@]3(C)C2CC=C2C4CC(C)(C)CC[C@]4(C(=O)O)CC[C@]23C)C1(C)C | - | 4.4 µg/mL

For reference, 5 entries again:

smiles | method | value
Cc1cn([C@H]2C[C@H](N=[N+]=[N-])[C@@H](CO)O2)c(=O)[nH]c1=O | trypan blue | >10 µg/mL
Cc1cn([C@H]2C[C@H](N=[N+]=[N-])[C@@H](CO)O2)c(=O)[nH]c1=O | - | 1875 µM
CC(C)[C@H](NC(=O)OCCN1CCOCC1)C(=O)N[C@@H](Cc1ccccc1)[C@H](O)[C@H](O)[C@H](Cc1ccccc1)NC(=O)[C@@H](NC(=O)OCCN1CCOCC1)C(C)C | trypan blue | >100 µM
CC(=O)OC1C=C2CC[C@H]3[C@@H]4CC[C@H]([C@H](C)C(=O)O)[C@@]4(C)CC[C@@H]3[C@@]2(C)CC1 | trypan blue | >10 µg/mL
CC(C)OP(=O)(COc1ccc(C[C@H](C[C@H](O)[C@H](Cc2ccccc2)NC(=O)OC(C)(C)C)C(=O)N[C@H]2c3ccccc3C[C@H]2O)cc1)OC(C)C | - | 130 µM